Structures were worked out from names or drawings and are uncertain.
Assays:
[1] = target: recombinant HIV-1 protease (Human immunodeficiency virus type 1 group M subtype B, UniProt P04585); assay: HIV-1 Protease Enzyme Assay (Ki); format: biochemical; settings: read-out: Enzymatic assay Ki
[2] = target: 84V90M (Human immunodeficiency virus type 1 group M subtype B, UniProt P04585, I572V/L578M); assay: Cell-based assay (MT-4) EC50, 84V90M; set-up: species or system HIV-1; settings: read-out: Cell-based assay (MT-4) EC50/nM 84V90M; MT-4, 84V90M
[3] = test system: mutant HIV-1 with M46F/I47V/I50V mutations (I50V #1); assay: Resistance Evaluation, I50V #1 fold change; format: cell-based; settings: fold difference in EC50 vs wild type, class symbols; tested form: TFA
[4] = test system: mutant HIV-1 with I84V/L90M mutations; assay: Resistance Evaluation, I84V/L90M fold change; format: cell-based; settings: fold difference in EC50 vs wild type, class symbols; tested form: TFA

Compound	Ki [1] [nM]	EC50 [2] [nM]	I50V (#1) fold change [3]	I84V/L90M fold change [4]
CCOC(=O)C(C)OP(=O)(COc1ccc(C[C@@H]2[C@H](O)[C@@H](O)[C@@H](Cc3ccccc3)N(Cc3ccccc3)C(=O)N2Cc2ccccc2)cc1)Oc1ccccc1 (stereo partly shown)	0.22	> 6000		
CCOC(=O)[C@H](C)OP(=O)(CCNCc1ccc(C[C@H](NC(=O)O[C@H]2CO[C@H]3OCC[C@H]32)[C@H](O)CN(CC(C)C)S(=O)(=O)c2ccc(OC)cc2)cc1)Oc1ccccc1OCC (stereo partly shown)			− (≦3)	− (≦3)
